Laboratory results: PubChem BioAssay AID1259414 (Drosophila RNAi Screening Center, 2018)

Assay: 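Genome-wide screen for host control of endosymbiont load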 (primary screen)
Cell system: Drosophila JW18 cells infected with Wolbachia
Knock-down reagent: long dsRNA against Drosophila genes, 0.25 µg dsRNA per well of a 384-well plate
Timing: 5 days
Conditions: cells persistently infected with Wolbachia before knock-down; no added drug
Read-out: 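Imaged fluorescence in situ signal for Wolbachia 23S rRNA per DAPI-counted host cell, given as a robust z-score within each plate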
Direction: Wolbachia per cell robust z: higher = more Wolbachia per host cell than the plate typical
Active means: 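Active if absolute robust z reaches 1.5 in two or more of three replicates, leaving out multi- or no-target dsRNAs, genes unexpressed in JW18 and A1 wells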
The screen tested about 24,000 reagents; this is an unselected part of those that have a named target and a result. Of all reagents, about 1,210 (5%) were called active. 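Inactive calls also include excluded dsRNAs with several or no targets, genes unexpressed in JW18, and well A1, regardless of score.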 A number with no mark means an inactive call. The numbers tell different reagents against one gene apart.

CG33919 showed Wolbachia per cell robust z, rep 1 = 1.44; Wolbachia per cell robust z, rep 2 = -0.389; Wolbachia per cell robust z, rep 3 = 0.634.
After knock-down of St3 (Sulfotransferase 3) #1, the screen gave Wolbachia per cell robust z, rep 1 = -3.77 (active); Wolbachia per cell robust z, rep 2 = 0.375; Wolbachia per cell robust z, rep 3 = -2.93.
With knock-down of St3 (Sulfotransferase 3) #2, the screen gave Wolbachia per cell robust z, rep 1 = 0.656; Wolbachia per cell robust z, rep 2 = -7.3; Wolbachia per cell robust z, rep 3 = -0.545.
Against CG11170 #1, the entry reads Wolbachia per cell robust z, rep 1 = -5.83; Wolbachia per cell robust z, rep 2 = 0.5; Wolbachia per cell robust z, rep 3 = 0.424.
With knock-down of CG11170 #2, the screen gave Wolbachia per cell robust z, rep 1 = -1.06; Wolbachia per cell robust z, rep 2 = -0.358; Wolbachia per cell robust z, rep 3 = 1.16.
Against CG10038 the deposit lists Wolbachia per cell robust z, rep 1 = -0.42; Wolbachia per cell robust z, rep 2 = -1.44; Wolbachia per cell robust z, rep 3 = 0.839.

Only “Wolbachia per cell robust z, rep 2” (2 entries from above):
CG11170 #2: -0.358
CG10038: -1.44

The listing continues:
With knock-down of CG12825 #1 the results were Wolbachia per cell robust z, rep 1 = -0.41; Wolbachia per cell robust z, rep 2 = 0.631; Wolbachia per cell robust z, rep 3 = 0.502.
CG12825 #2 gave Wolbachia per cell robust z, rep 1 = -0.092; Wolbachia per cell robust z, rep 2 = 1.82; Wolbachia per cell robust z, rep 3 = -0.833.
After knock-down of Fdx2 (Ferredoxin 2), the record shows Wolbachia per cell robust z, rep 1 = -1.6; Wolbachia per cell robust z, rep 2 = -1.09; Wolbachia per cell robust z, rep 3 = -1.
After knock-down of CG6610 the results were Wolbachia per cell robust z, rep 1 = 0.459; Wolbachia per cell robust z, rep 2 = 0.811; Wolbachia per cell robust z, rep 3 = -0.0469.
asl (asterless) scored Wolbachia per cell robust z, rep 1 = 1; Wolbachia per cell robust z, rep 2 = -1.28; Wolbachia per cell robust z, rep 3 = -1.46.
lgs (legless) showed Wolbachia per cell robust z, rep 1 = 1.33; Wolbachia per cell robust z, rep 2 = 0.376; Wolbachia per cell robust z, rep 3 = -0.448.
